Pooled drug test results. Numbers come from NIAID ChemDB, via PubChem.

Common to all: tests in culture; species: HIV-2; cells: MT-4; measure: EC50

ECn: concentration that inhibits the pathogen or its effect by n%. Blank or dashed fields: not listed here. Neighbouring rows are from separate reports.

smiles | strain | method | value
O=C(NC1CCN(S(=O)(=O)c2ccccc2)CC1)c1cc(O)c(O)c(O)c1 | ROD | MTT | >127.8 µM
Cc1cn([C@H]2C[C@H](N=[N+]=[N-])[C@@H](CO)O2)c(=O)[nH]c1=O | ROD |  | 0.022 µM
Cc1cc(C)c(S(=O)(=O)N2CCC(NC(=O)c3cc(O)c(O)c(O)c3)CC2)c(C)c1 | ROD | MTT | >19.9 µM
CCC(C)Nc1nc(N)nc2c1ncn2CCOCP(=O)(O)O | ROD | cytopathic effect / MTT | 2 µg/mL
Cc1cc(C)c(Nc2nc(NC3CCN(Cc4cccc(F)c4)CC3)nc3nc[nH]c23)c(C)c1 | ROD | MTT | >30.68 µM
COC(=O)c1cc(C(O)(c2ccc(O)c(C(=O)OC)c2)c2ccc(O)c(C(=O)OC)c2)ccc1O |  | cytopathic effect | >200 µM
CO[C@@H]1[C@@H](O)[C@@H](O)[C@H](O)[C@H](O)[C@H]1n1ccc(N)nc1=O |  | cytopathic effect / MTT | >10 µg/mL
O=[N+]([O-])c1ccc(CN2CCC(N=C3C=C(Cc4cccc5ccccc45)NS(=O)(=O)N3)CC2)cc1 | ROD | MTT | >104 µM
CN(C)C(=O)N1CCC(NC(=O)c2cc(O)c(O)c(O)c2)CC1 | ROD | MTT | >34.3 µM
O=S1(=O)NC(Cc2cccc3ccccc23)=CC(=NC2CCN(Cc3ccc(F)cc3)CC2)N1 | ROD | MTT | >120 µM
Cc1cc(C)c(Nc2nc(NC3CCN(Cc4ccc(C(N)=O)cc4)CC3)nc3nc[nH]c23)c(C)c1 | ROD | MTT | >23.85 µM
Cc1cc(/C=C/c2ccccc2)cc(C)c1Oc1ccnc(Nc2ccc(C#N)cc2)n1 | ROD | MTT | >18.5 µM
O=S1(=O)NC(Cc2ccc(Cl)cc2Cl)=CC(=NC2CCN(Cc3c(Cl)cccc3Cl)CC2)N1 | ROD | MTT | >48.2 µM
COc1c(O)c(Br)c2c(c1OC)-c1c(c(Br)c(O)c(OC)c1OC)C[C@H](C)[C@H](C)C2 | ROD | cytopathic effect / MTT | >18 µM
CO[C@@H]1[C@@H](O)[C@@H](O)[C@H](O)[C@H](O)[C@H]1n1cnc2c(N)ncnc21 |  | cytopathic effect / MTT | >10 µg/mL
Cc1c(C(C)CC2CCCCC2)nc(SCC(=O)c2ccc(F)cc2)[nH]c1=O | ROD | MTT | 115 µM
O=[N+]([O-])c1ccc(CN2CCC(N=C3C=C(Cc4ccc(Cl)cc4Cl)NS(=O)(=O)N3)CC2)cc1 | ROD | MTT | >97.06 µM
CCc1c(CC2CCCCC2)nc(SCC(=O)c2ccccc2)[nH]c1=O | ROD | MTT | 263 µM
Cc1cc(C)c(CN2CCC(N=C3C=C(Cc4cccc5ccccc45)NS(=O)(=O)N3)CC2)c(C)c1 | ROD | MTT | >70.22 µM
C[C@H](C[n+]1c[nH]c2c(NCCCCCCCC3CCCCC3)nc(N)nc21)OCP(=O)(O)O | ROD | cytopathic effect / MTT | 7 ± 2.6 µg/mL
CCc1c(C(C)CC2CCCCC2)nc(SCC(=O)c2ccc(OC)cc2)[nH]c1=O | ROD | MTT | 31 µM
Cc1cccc(C)c1Oc1ccnc(Nc2ccc(C#N)cc2)n1 | ROD | MTT | >12.1 µM
CS(=O)(=O)N1CCC(NC(=O)c2cc(O)c(O)c(O)c2)CC1 | ROD | MTT | >42.4 µM
C[C@H](Cn1cnc2c(N)ncnc21)OCP(=O)(O)O | ROD | cytopathic effect / MTT | 1.69 ± 0.35 µg/mL
Cc1c(C(C)CC2CCCCC2)nc(SCC(=O)c2ccccc2)[nH]c1=O | ROD | MTT | 179 µM
C[C@H](CC1CNC2C1OC(N)CN2N)OCP(=O)(O)O | ROD | cytopathic effect / MTT | >100 µg/mL
COc1c(O)c(Cl)c2c(c1OC)-c1c(c(Cl)c(O)c(OC)c1OC)C[C@H](C)[C@H](C)C2 | CBL-20 | cytopathic effect / MTT | >22 µM
Cc1cc(C)c(Nc2nc(NC3CCN(Cc4ccccc4F)CC3)nc3nc[nH]c23)c(C)c1 | ROD | MTT | >23.61 µM
CC(CC1CCCCC1)c1cc(=O)[nH]c(SCC(=O)c2ccc(F)cc2)n1 | ROD | MTT | 108 µM
CO[C@H]1[C@@H](O)[C@H](n2cnc3c(N)ncnc32)[C@@H](O)[C@H](O)[C@@H]1O.O=C(O)/C=C/C(=O)O |  | cytopathic effect / MTT | >10 µg/mL
Nc1nc(N2CCOCC2)c2ncn(CCOCP(=O)(O)O)c2n1 | ROD | cytopathic effect / MTT | 16 µg/mL
O=S1(=O)NC(Cc2cccc3ccccc23)=CC(=NC2CCN(Cc3ccc(Br)cc3)CC2)N1 | ROD | MTT | >83.78 µM
Cc1c(C(C)CC2CCCCC2)nc(SCC(=O)c2ccc(O)cc2)[nH]c1=O | ROD | MTT | 24 µM
Nc1ccn([C@H]2CC[C@@H](CO)O2)c(=O)n1 | ROD | cytopathic effect / MTT | >0.09 µg/mL
CCS(=O)(=O)N1CCC(NC(=O)c2cc(O)c(O)c(O)c2)CC1 | ROD | MTT | >36.6 µM
Cc1cc(C)c(Nc2nc(NC3CCN(Cc4ccccc4)CC3)nc3nc[nH]c23)c(C)c1 | ROD | MTT | >25.95 µM
Nc1ccc(C(=O)N2CCC(NC(=O)c3cc(O)c(O)c(O)c3)CC2)cc1 | ROD | MTT | >35.6 µM
COc1c(O)c(I)c2c(c1OC)-c1c(c(I)c(O)c(OC)c1OC)C[C@H](C)[C@H](C)C2 | ROD | cytopathic effect / MTT | >16 µM
COc1ccc(CN2CCC(N=C3C=C(Cc4ccc(Cl)cc4Cl)NS(=O)(=O)N3)CC2)cc1 | ROD | MTT | >109 µM
CC(C)(C)c1ccc(S(=O)(=O)N2CCC(NC(=O)c3cc(O)c(O)c(O)c3)CC2)cc1 | ROD | MTT | >131 µM
Cc1ccccc1CN1CCC(N=C2C=C(Cc3cccc4ccccc34)NS(=O)(=O)N2)CC1 | ROD | MTT | >107 µM
Nc1nc(NCCc2ccccc2)c2ncn(CCOCP(=O)(O)O)c2n1 | ROD | cytopathic effect / MTT | 11.9 µg/mL
Cc1cc(C)c(Nc2nc(NC3CCN(Cc4ccccn4)CC3)nc3nc[nH]c23)c(C)c1 | ROD | MTT | >114 µM
Cc1cc(C#Cc2ccccc2)cc(C)c1Oc1ccnc(NC2CCN(Cc3ccc(S(N)(=O)=O)cc3)CC2)n1 | ROD | MTT | >0.766 µM
CS(=O)(=O)c1ccc(CN2CCC(N=C3C=C(Cc4ccc(Cl)cc4Cl)NS(=O)(=O)N3)CC2)cc1 | ROD | MTT | >224 µM
O=C(O)c1cc(C(O)(c2ccc(O)c(C(=O)O)c2)c2ccc(O)c(C(=O)O)c2)ccc1O |  | cytopathic effect | 34 µM
Cc1cc(C#CC2CC2)cc(C)c1Oc1ccnc(Nc2ccc(C#N)cc2)n1 | ROD | MTT | >3.81 µM
CO[C@H]1[C@@H](O)[C@H](n2cnc3c(N)ncnc32)[C@@H](O)[C@H](O)[C@@H]1O |  | cytopathic effect / MTT | <10 µg/mL

For reference, 3 entries again:

smiles,strain,method,value
COc1ccc(CN2CCC(N=C3C=C(Cc4ccc(Cl)cc4Cl)NS(=O)(=O)N3)CC2)cc1,ROD,MTT,>109 µM
Cc1cccc(C)c1Oc1ccnc(Nc2ccc(C#N)cc2)n1,ROD,MTT,>12.1 µM
Cc1cc(/C=C/c2ccccc2)cc(C)c1Oc1ccnc(Nc2ccc(C#N)cc2)n1,ROD,MTT,>18.5 µM